For the data set, the system named is microbial population. Put plainly: Gas production during in vitro rumen fluid incubation (ANKOM RF Gas Production System). Also noted: species or system Holstein steers (rumen fluid donors).

With `CSCCC1OC(=O)C(CCSC)OC1=O` (stereo not drawn) [Cyclic Dimer, 3,6-bis(2-methylthio)ethyl-1,4-dioxane-2,5-dione], the Gas produced is, setting by setting: (Experiment 1, 1 h) 24.68 mL; (Experiment 1, 3 h) 69.16 mL; (Experiment 1, 6 h) 105.4 mL; (Experiment 1, 12 h) 129.9 mL.
Take `CSCCC(O)C(=O)O` (stereo not drawn) [MHA, Methionine hydroxy analog]: the Gas produced is, setting by setting: (Experiment 1, 1 h) 22.41 mL; (Experiment 1, 3 h) 60.40 mL; (Experiment 1, 6 h) 122.2 mL; (Experiment 1, 12 h) 138.5 mL; (Experiment 2, 1 h) 2.24 mL; (Experiment 2, 3 h) 20.25 mL. Moreover, the Gas produced is reported as 40.49 mL (Experiment 2, 6 h) and 65.86 mL (Experiment 2, 12 h).

The record behind these values is US11185524B2 (Novus International, Inc., priority 2019, dated 2021).
